In PubChem BioAssay AID588519 (ICCB-Longwood Screening Facility, Harvard Medical School, 2011) one finds % elongation data, which are given here for 28 molecules.

SMILES strings stand for the structures. The entries are a selection whose mix differs from that of the whole data set. The source made the active and inactive calls. Cut-off read from the data, not from the text of the source: active = % elongation below about 90%; inactive = the rest, inconclusive results apart.

In this assay the target is Genome polyprotein (Poliovirus type 1 (strain Mahoney)) (UniProt P03300). Nature of the assay: inhibitors of poliovirus polymerase RNA elongation – biochemical, fluorescence polarization, total intensity, primary screen (AID 588519). Particulars: hits give low values, compound at 16.7 µg/mL.
Regarding `COP1(=S)N=C2c3ccccc3CN2c2cc(N(C)C)ccc21` (stereo not drawn), the % elongation was inactive: 102%.
For the molecule `Cc1cc(C)cc(OP(C)(=O)NCc2ccccc2)c1` (stereo not drawn), the % elongation is inactive: 103%.
As to `Nc1nonc1OCCOc1nonc1N`, the % elongation was inactive: 101%.
As to `O=C(O)CCC(=O)N=S(c1ccccc1)c1ccccc1.O=[N+]([O-])c1cc([N+](=O)[O-])c(O)c([N+](=O)[O-])c1`, the % elongation is inactive: 98%.
On to `COc1ccccc1OP(C)(=O)Nc1ccccc1` (stereo not drawn), for which the % elongation is inactive: 100%.
`CCN1C(=O)N(c2ccccc2)P(=S)(OC)c2cc3c(cc21)OCCO3` (stereo not drawn): the % elongation was inactive: 98%.
`CP(=O)(Nc1ccc(Cl)cc1)Oc1ccccc1` (stereo not drawn): the % elongation was inactive: 100%.
As for `CP(=O)(NC(=O)Nc1ccccc1)Oc1ccccc1` (stereo not drawn), the % elongation was inactive: 103%.
On to `COP1(=S)c2c(C)nn(-c3ccccc3)c2N=C(c2ccccc2)N1C1CC1` (stereo not drawn), for which the % elongation was inactive: 101%.
As to `CCn1cccc/c1=N\P1(=S)OCCO1`, the % elongation is inactive: 104%.
Next, `Cc1cccc(NP(C)(=O)Oc2ccccc2)c1` (stereo not drawn): inactive: 97%; `CCOC(=O)c1ccc(NP(C)(=O)Oc2ccc(OC)cc2)cc1` (stereo not drawn): inactive: 103%; `Nc1nonc1-c1no[n+]([O-])c1-c1nonc1N`: inactive: 94%.
In the case of `O=P1(Nc2ccccn2)COc2ccccc2OC1`, the % elongation was inactive: 104%.
Turning to `Cc1nn(CCC#N)c2c1P(=O)(Nc1ccccc1Cl)N(C)C(c1ccc(F)cc1)=N2` (stereo not drawn), the % elongation was inactive: 102%.
Then `CP(=O)(N1CCOCC1)N1CCOCC1`, with inactive: 106%; and `Cc1nn(-c2ccccc2)c2c1P(=O)(N1CCOCC1)N(C)C(c1ccccc1)=N2` (stereo not drawn), with inactive: 104%.
Next, `Cc1ccc(C(=O)OC2CN3CCC2CC3)cc1` (stereo not drawn): inactive: 109%; `CC1(C)COP(=S)(N(C2=NCCC2)c2ccccc2)OC1`: inactive: 99%; `Cc1cc(C)cc(OP(C)(=O)Nc2ccc(OC(C)C)cc2)c1` (stereo not drawn): inactive: 101%.
As to `CCSP(=O)(c1ccccc1)c1ccccc1`, the % elongation was inactive: 99%.
Next, `NC(=O)COC(=O)C1(O)c2ccccc2-c2ccccc21`: inactive: 102%.
For `CCOP1(=S)c2c(C)nn(CCC#N)c2N=C(c2ccc(F)cc2)N1C` (stereo not drawn), the % elongation was inactive: 100%.
Consider `NC(=O)Nc1ccc([As](=O)(O)O)cc1`, for which the % elongation is inactive: 100%.
Then `O=P1(Nc2nc3ccc(Cl)cc3s2)COc2ccccc2OC1`, with inactive: 101%; and `Cc1cccc(OCC(=O)OC2CN3CCC2CC3)c1` (stereo not drawn), with inactive: 101%; and `COc1cc(-n2cnnn2)ccc1-n1cnnn1`, with inactive: 105%.
`O=C(OC1CN2CCC1CC2)c1ccc(Cl)cc1` (stereo not drawn): the % elongation was inactive: 103%.
